# Vif 1203: effect of single changes on growth against APOBEC3G

Scanned stretch, residues 12 to 115 of Vif from HIV-1 1203 (a subtype B primary isolate):
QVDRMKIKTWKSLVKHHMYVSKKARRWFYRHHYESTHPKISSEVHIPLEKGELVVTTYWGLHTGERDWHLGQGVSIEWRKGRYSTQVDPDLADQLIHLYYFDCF

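Pooled viruses with one designed change each in Vif went through two 72 h rounds in SupT1 cells expressing APOBEC3G. Each of three replicates was sequenced after round two and set against the merged round-one pool. The overlap of vif with pol had been removed, so integrase is unaffected.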

Values are log2 enrichment relative to wild type (0); lower means weaker defence against APOBEC3G and poorer growth. Each entry names the wild-type residue, its position and the residue put in its place. The median of three replicates is given, with the replicates in brackets. Input reads are the counts in the merged round-one pool, before selection. Not every substitution is listed.

mutation	input reads	log2 enrichment (median)
Q12C	240	1.45 (-2.25 / 2.33 / 1.45)
Q12E	214	-0.72 (0.66 / -2.68 / -0.72)
Q12F	263	-1.98 (-1.87 / -2.04 / -1.98)
Q12G	39	0.58 (-0.43 / 4.19 / 0.58)
Q12K	22	1.39 (0.62 / 5.43 / 1.39)
Q12W	196	-1.49 (-2.12 / -1.49 / -1.39)
Q12Y	268	-1.45 (-1.37 / -2.21 / -1.45)
D14A	269	-1.85 (-2.39 / -1.54 / -1.85)
D14F	60	-4.34 (-4.48 / -4.34 / -1.62)
D14G	37	0.21 (-0.98 / 4.64 / 0.21)
D14H	296	-1.73 (-1.73 / -1.68 / -2.53)
D14N	559	0.53 (1.31 / -2.00 / 0.53)
D14T	271	-1.60 (-1.60 / -2.12 / 1.77)
D14V	23	-0.99 (5.41 / -1.39 / -0.99)
D14Y	220	-0.99 (-0.99 / -1.69 / 0.03)
R15A	642	-1.83 (-1.83 / -2.47 / -1.42)
R15E	582	-1.82 (-1.82 / -2.48 / -1.08)
R15F	362	-2.17 (-2.36 / -2.17 / -1.11)
R15I	19	0.56 (0.56 / -1.13 / 0.70)
R15K	27	0.70 (-1.81 / 0.70 / 1.10)
R15L	236	-2.10 (-2.10 / -2.61 / -1.80)
R15N	21	3.44 (3.44 / -0.53 / 4.89)
R15Q	368	-0.99 (-2.28 / 1.31 / -0.99)
R15S	676	-0.30 (-2.04 / 0.80 / -0.30)
R15W	262	-1.52 (-1.52 / -2.56 / -0.81)
R15Y	989	-0.67 (-0.67 / -1.05 / 4.44)
M16A	33	-0.24 (-0.86 / 4.03 / -0.24)
M16C	18	0.83 (0.36 / 0.83 / 5.26)
M16I	509	-0.99 (-0.99 / -1.80 / -0.60)
M16K	41	-1.17 (-1.17 / -1.48 / 0.10)
M16L	515	-1.78 (-1.72 / -1.82 / -1.78)
M16S	533	-0.89 (-0.89 / -1.87 / 3.04)
M16T	293	-1.94 (-1.94 / -2.37 / -1.53)
M16V	17	0.21 (1.18 / -2.55 / 0.21)
M16W	428	-2.06 (-2.06 / -2.64 / -1.17)
K17C	1253	-2.02 (-0.07 / -3.53 / -2.02)
K17E	849	0.56 (0.81 / 0.56 / 0.46)
K17F	69	-2.98 (-3.04 / -2.98 / -1.83)
K17G	375	-1.46 (1.71 / -1.79 / -1.46)
K17I	43	-3.48 (2.53 / -3.89 / -3.48)
K17N	35	-0.02 (1.56 / -0.13 / -0.02)
K17S	38	-0.50 (2.89 / -2.13 / -0.50)
K17T	102	-1.95 (-1.48 / -1.95 / -2.39)
K17V	251	-1.62 (-1.62 / -2.72 / -1.37)
K17Y	117	0.58 (5.56 / -1.07 / 0.58)
I18K	394	-2.26 (-1.01 / -2.98 / -2.26)
I18P	2849	-1.88 (-1.88 / -1.99 / -0.11)
I18Q	256	-1.97 (-1.97 / -2.74 / -1.64)
I18S	20	1.67 (1.67 / -2.80 / 2.47)
I18T	276	-1.60 (-2.08 / -1.60 / -1.39)
I18V	138	-2.03 (-2.03 / -3.23 / -0.19)
I18Y	30	0.15 (0.15 / 4.90 / -0.64)
K19A	158	0.13 (0.13 / 4.87 / 0.01)
K19D	723	-2.05 (-2.29 / -1.73 / -2.05)
K19E	584	-2.53 (-2.53 / -3.22 / -1.26)
K19F	1503	0.60 (0.64 / 0.32 / 0.60)
K19G	39	-1.61 (-1.61 / -3.72 / 0.56)
K19H	646	-2.18 (-2.18 / -2.90 / -1.82)
K19I	19	1.00 (1.00 / 0.75 / 4.27)
K19N	355	-0.79 (-1.08 / -0.79 / 0.14)
K19Q	260	-2.54 (-3.84 / -2.54 / -2.37)
K19R	1153	-0.73 (-0.73 / -1.60 / -0.19)
K19T	1944	-2.08 (-2.08 / -2.25 / -0.71)
K19Y	22	0.26 (0.34 / 0.26 / -0.95)
T20D	254	-2.11 (-1.95 / -2.96 / -2.11)
T20E	415	-2.65 (-2.65 / -2.88 / -2.63)
T20F	37	0.08 (0.08 / -0.48 / 4.13)
T20H	27	0.71 (0.71 / -1.62 / 4.12)
T20N	1171	-2.91 (-2.91 / -3.07 / -1.87)
T20V	725	-1.91 (-1.91 / -2.31 / -0.01)
T20W	333	1.07 (0.45 / 1.34 / 1.07)
K22C	27	1.26 (1.26 / -0.40 / 4.97)
K22H	261	-2.76 (-6.63 / -2.76 / -2.15)
K22N	63	-1.21 (-1.42 / -0.51 / -1.21)
K22P	2007	-1.88 (-2.14 / -1.88 / -0.79)
K22R	22	-0.29 (-0.29 / -1.33 / -0.20)
K22V	36	0.48 (-0.09 / 4.95 / 0.48)
K22Y	430	-2.25 (-2.14 / -3.09 / -2.25)
S23F	277	-1.90 (-2.51 / -1.90 / -1.50)
S23G	169	0.55 (5.62 / -0.21 / 0.55)
S23I	600	-1.88 (-1.88 / -1.98 / 0.02)
S23N	51	-0.01 (-0.08 / 3.67 / -0.01)
S23Q	151	-2.92 (-2.92 / -3.34 / -2.46)
S23V	285	-2.06 (-2.74 / -2.06 / -1.43)
S23W	19	1.38 (6.11 / 1.38 / 1.15)
S23Y	2055	-0.23 (-0.37 / -0.23 / -0.06)

The last 10 entries again:

With K22V (input reads 36) the assay gave 0.48 (-0.09 / 4.95 / 0.48).
With K22Y (input reads 430) the assay gave -2.25 (-2.14 / -3.09 / -2.25).
With S23F (input reads 277) the assay gave -1.90 (-2.51 / -1.90 / -1.50).
With S23G (input reads 169) the assay gave 0.55 (5.62 / -0.21 / 0.55).
With S23I (input reads 600) the assay gave -1.88 (-1.88 / -1.98 / 0.02).
With S23N (input reads 51) the assay gave -0.01 (-0.08 / 3.67 / -0.01).
With S23Q (input reads 151) the assay gave -2.92 (-2.92 / -3.34 / -2.46).
With S23V (input reads 285) the assay gave -2.06 (-2.74 / -2.06 / -1.43).
With S23W (input reads 19) the assay gave 1.38 (6.11 / 1.38 / 1.15).
With S23Y (input reads 2055) the assay gave -0.23 (-0.37 / -0.23 / -0.06).

The scan is noisy: the rank correlation of replicates is about 0.4 to 0.65, and variants with under about 50 input reads tend to read too high. The authors note that some positive scores may be noise, and some enriched variants failed when tested singly.

The measurements come from Langley et al. 2025, preprint (doi:10.1101/2025.10.20.683452).